This note sets out measurements from patent US10940188B2, “Compounds and methods for treatment and prevention of Flavivirus infection” (priority 2016, dated 2021).

This data set has as its system HEK293 cells. The data set can be described thus: Toxicity IC50 (cell-killing activity) of the NS1 TR-FRET screen. Type of data set: cell-based, human. Particulars: ratio of Toxicity IC50 to NS1 IC50.

Regarding `C/C=C(/C)C(=O)O[C@H]1C(C)=C2[C@H]([C@@H]1OC(=O)CCCCCCC)[C@@](C)(OC(C)=O)C[C@H](OC(=O)CCC)[C@@]1(O)[C@H]2OC(=O)[C@@]1(C)O` [Thapsigargin], the “Tox IC50/NS1 IC50 ratio” value is on record as 234.5.
Next, `O=c1[nH]c2ccc(Cl)cc2c(N[C@@H]2CN3CCC2CC3)c1-c1nc2ccccc2[nH]1` [CHIR-124]: 8.0; `O=C1c2c(O)ccc(O)c2C(=O)c2c(NCCNCCO)ccc(NCCNCCO)c21` [Mitoxantrone]: 215.4.
On to `Cc1ccc(C(=O)N(CCCN)[C@@H](c2nc3cc(Cl)ccc3c(=O)n2Cc2ccccc2)C(C)C)cc1` [Ispinesib], for which the “Tox IC50/NS1 IC50 ratio” value worked out at 555.9.
Turning to `O=c1[nH]c(=O)n([C@H]2C[C@H](O)[C@@H](CO)O2)cc1F` [Floxuridine], the “Tox IC50/NS1 IC50 ratio” value came to 65.4.
With `OCCCNc1cc(-c2ccnc(Nc3cccc(Cl)c3)n2)ccn1` [CGP-60474], the “Tox IC50/NS1 IC50 ratio” value is 75.6.
The value for `CN[C@@H]1C[C@H]2O[C@@](C)([C@@H]1OC)n1c3ccccc3c3c4c(c5c6ccccc6n2c5c31)C(=O)N[C@H]4O` [7-Hydroxystaurosporine] was 134.0; that for `C[C@H]1O[C@@H](O[C@H]2[C@@H](O)C[C@H](O[C@H]3[C@@H](O)C[C@H](O[C@H]4CC[C@@]5(C)[C@H](CC[C@@H]6[C@@H]5C[C@@H](O)[C@]5(C)[C@@H](C7=CC(=O)OC7)CC[C@]65O)C4)O[C@@H]3C)O[C@@H]2C)C[C@H](O)[C@@H]1O` [Digoxin] was 394.2; that for `CC(C)C[C@H](NC(=O)[C@@H](NC(=O)c1cccc(-c2ccccc2)n1)[C@@H](C)O)B(O)O` [Delanzomib] was 5.1.
Next, `NCC(=O)Nc1ccc(-n2nc(C(F)(F)F)cc2-c2ccc3c(ccc4ccccc43)c2)cc1` [OSU-03012]: 10.1; `CC(C)C[C@H](NC(=O)CNC(=O)c1cc(Cl)ccc1Cl)B(O)O` [MLN-2238]: 9.1.
Next, `Cn1c2ccccc2c2c3c(c4c5ccccc5n(CCC#N)c4c21)CNC3=O` [Go-6976]: 21.4; `O=C(Cc1ccc(-c2ccc(OCCN3CCOCC3)cc2)cn1)NCc1ccccc1` [KX-01]: 40.2.
